The source of these data is patent US6849601B1 (priority 1998, dated 2005).

For this assay, the target named is α1-adrenoceptor of the rat vas deferens (rat), P18090. Put plainly: cell-based or functional assay.

With FNWRCCLIPACRRNHKKFC (modifications not checked) [ρ-TIA], the maximum response to noradrenaline at 3 µM ρ-TIA, as % of the control response (% of control response) worked out at 82 and the maximum response to noradrenaline at 10 µM ρ-TIA, as % of the control response (% of control response) turned out to be 42.
